Source: PubChem BioAssay AID624099 (ICCB-Longwood, 2012)
This is a random part of about 21,000 reagents tested. Of all reagents, 497 (2.4%) were called active. 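Higher z means weaker E2 silencing; only reporter increases were scored, and knock-downs that hurt cell survival may mask genuine repressor factors.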 Unmarked entries are inactive.

- Purpose: 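Human genes that papillomavirus E2 requires to repress the HPV18 LCR promoter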 (primary screen)
- System: human C33A cervical carcinoma cells (HPV-negative) stably expressing BPV1 E2 and an HPV18 LCR luciferase reporter
- Knock-down reagent: siRNA pool against human genes, 40 nM
- Duration: 72 h
- Read-out: 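Per-well luciferase luminescence, z-scored on each plate against the plate mean and SD with control wells left out, then averaged across three replicate plates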
- Reading the numbers: mean z-score and z-score: higher = stronger reporter signal, weaker E2 silencing
- Rule for the call: 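Mean z ≥ 2 together with z ≥ 2 in two or more of the three replicates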

For SPANXA2 (GeneID 728712) the deposit lists mean z-score -0.51; z-score, replicate A = -1.15; z-score, replicate B = 0.03; z-score, replicate C = -0.39. After knock-down of ADAMTS20 (GeneID 80070), the screen gave mean z-score -0.66; z-score, replicate A = -0.43; z-score, replicate B = -0.77; z-score, replicate C = -0.78. PLCB2 (GeneID 5330) scored mean z-score -0.05; z-score, replicate A = -0.11; z-score, replicate B = 0.07; z-score, replicate C = -0.13. Against TDP2 (GeneID 51567) the deposit lists mean z-score -1.07; z-score, replicate A = -0.79; z-score, replicate B = -1.12; z-score, replicate C = -1.3. LOC401053 (retired record) (GeneID 401053) gave mean z-score -0.71; z-score, replicate A = -0.57; z-score, replicate B = -0.55; z-score, replicate C = -0.99. For ANLN (GeneID 54443), the values are mean z-score -0.06; z-score, replicate A = 0.03; z-score, replicate B = 0.05; z-score, replicate C = -0.26.

Against DSCC1 (GeneID 79075), the entry reads mean z-score -0.76; z-score, replicate A = -0.53; z-score, replicate B = -1.14; z-score, replicate C = -0.61. ARR3 (GeneID 407) showed mean z-score 0.47; z-score, replicate A = 0.52; z-score, replicate B = 0.33; z-score, replicate C = 0.57. For ATG7 (GeneID 10533), the values are mean z-score 0.81; z-score, replicate A = 0.69; z-score, replicate B = 0.73; z-score, replicate C = 1.02. KRTAP23-1 (GeneID 337963) showed mean z-score -0.11; z-score, replicate A = -0.04; z-score, replicate B = 0.07; z-score, replicate C = -0.37.

Copied from the list:
LOC401053 (retired record) (GeneID 401053), z-score, replicate A = -0.57
Value of KRTAP23-1 (GeneID 337963) in “z-score, replicate A”: -0.04

The results go on:
Against CEP57L1 (GeneID 285753), the values are mean z-score 6.48 (active); z-score, replicate A = 6.26; z-score, replicate B = 6.09; z-score, replicate C = 7.09. After knock-down of HLA-DRB1 (GeneID 3123), the screen gave mean z-score 0.71; z-score, replicate A = 0.91; z-score, replicate B = 0.69; z-score, replicate C = 0.54. SLC25A36 (GeneID 55186) gave mean z-score 0.87; z-score, replicate A = 0.96; z-score, replicate B = 0.61; z-score, replicate C = 1.05. For TLNRD1 (GeneID 59274), the entry reads mean z-score 1.76; z-score, replicate A = 1.63; z-score, replicate B = 2.29; z-score, replicate C = 1.36. MRGBP (GeneID 55257) gave mean z-score -0.59; z-score, replicate A = -1.17; z-score, replicate B = -0.53; z-score, replicate C = -0.07. Depletion of LOC440464 (retired record) (GeneID 440464) gave: mean z-score -0.7; z-score, replicate A = -0.72; z-score, replicate B = -0.82; z-score, replicate C = -0.55.

Silencing of AGBL1 (GeneID 123624) resulted in: mean z-score 0.74; z-score, replicate A = 0.55; z-score, replicate B = 1.04; z-score, replicate C = 0.64. With knock-down of LDLRAD3 (GeneID 143458) the results were mean z-score -0.4; z-score, replicate A = 0.38; z-score, replicate B = -1.28; z-score, replicate C = -0.28. For OR7E91P (GeneID 79315), the values are mean z-score 0.53; z-score, replicate A = 0.52; z-score, replicate B = 0.41; z-score, replicate C = 0.66. After knock-down of PCBP3 (GeneID 54039), the record shows mean z-score -1.26; z-score, replicate A = -1.07; z-score, replicate B = -1.03; z-score, replicate C = -1.67. With knock-down of DENND11 (GeneID 57189), the screen gave mean z-score 1.45; z-score, replicate A = 1.39; z-score, replicate B = 1.35; z-score, replicate C = 1.63.
